From patent publication US10988444B2, “Antimicrobial compounds” (NEWSOUTH INNOVATIONS PTY LIMITED, priority 2016, dated 2021)

How the values were obtained:
[1] = test system: MRC-5 normal human lung fibroblasts; experiment: Cytotoxicity assay, Alamar blue, Example 2; format: cell-based; settings: IC50 value divided by MIC value
Experimental: The in vitro toxicity of the compounds (24a, 38b, 42d, 43d) was determined against MRC-5 normal human lung fibroblasts using the Alamar blue assay (see O'Brien, J.; Wilson, I.; Orton, T.; Pognan, F. Eur. J. Biochem. 2000, 267 (17), 5421-5426). A dose-response curve for each compound was generated to determine the IC50 values (concentration of compound which killed half of the cells) and the IC50 values were then used to determine the therapeutic window (IC50 value divided by MIC value) and specificity of the compounds (Table 3).

[2] = test system: MRC-5 normal human lung fibroblasts; experiment: Toxicity assay, Alamar blue, Example 1; format: cell-based; settings: IC50 MRC-5 versus MIC
Experimental: The normal human lung fibroblasts MRC-5 were cultured in minimal essential medium (MEM, Invitrogen) supplemented with 10% foetal calf serum (FCS), 1% L-glutamine-penicillin-streptomycin, 2% sodium bicarbonate, 1% non-essential amino acids (NEAA) and 1% sodium pyruvate. The cell line was maintained at 37° C. in 5% CO2 as an adherent monolayer and was passaged upon reaching confluence by standard cell culture techniques. MRC-5 cells were seeded at 2×10^4 cells per well in 96-well plates to ensure full confluence (quiescence). Cells were treated 24 h after seeding with 0.1 to 1000 μM of compounds. After 72 h drug incubation, the treated media was replaced with fresh media containing 10% Alamar blue and the cells were incubated for another 6 h. The metabolic activity was detected by spectrophotometric analysis by assessing the absorbance of Alamar blue as previously described by Pasquier et. al (see Pasquier, E.; Ciccolini, J.; Carre, M.; Giacometti, S.; Fanciullino, R.; Pouchy, C.; Montero, M.-P.; Serdjebi, C.; Kavallaris, M.; André, N. Oncotarget 2011, 2, 797).
Cell proliferation was determined and expressed as a percentage of untreated control cells. The determination of IC50 values was performed using GraphPad Prism 6 (San Diego, Calif., USA). […]

`CCCCCCCCS(=O)(=O)Nc1ccc(Br)cc1C(=O)C(=O)NCCCNC(=N)N.Cl` [Compound 43d, 2-(5-Bromo-2-(octylsulfonamido)phenyl)-N-(3-guanidinopropyl)-2-oxoacetamide hydrochloride] gave a Therapeutic window [1] of 14.83.

For `CCCCCCCCS(=O)(=O)Nc1ccc(Br)cc1C(=O)C(=O)NCCN(C)C.Cl` [Compound 38b, 2-(2-(5-Bromo-2-(octylsulfonamido)phenyl)-2-oxoacetamido)-N,N-dimethylethan-1-aminium chloride], the Therapeutic window [1] was 1.20.

With `CCCCCCCCS(=O)(=O)Nc1ccccc1C(=O)C(=O)NCCCNC(=N)N.Cl` [Compound 42d, N-(3-Guanidinopropyl)-2-(2-(octylsulfonamido)phenyl)-2-oxoacetamide hydrochloride] the Therapeutic window [1] was 7.94.

In the case of `COC(=O)[C@H](CCCNC(=N)N)NC(=O)[C@H](CCCNC(=N)N)NC(=O)C(=O)c1ccccc1NC(=O)c1ccc2ccccc2c1.Cl.Cl` [Compound 65, Methyl (2-(2-(2-naphthamido)phenyl)-2-oxoacetyl)arginylargininate dihydrochloride], the “IC50 against MRC-5 relative to MIC (fold lower toxicity to mammalian cells)” value [2] is reported as “greater than 24 fold”.

In the case of `COC(=O)[C@H](CCCNC(=N)N)NC(=O)[C@H](CCCNC(=N)N)NC(=O)C(=O)c1cc(Br)ccc1NC(=O)c1ccc2ccccc2c1.Cl.Cl` [Compound 66, Methyl (2-(2-(2-naphthamido)-5-bromophenyl)-2-oxoacetyl)arginylargininate dihydrochloride], the “IC50 against MRC-5 relative to MIC (fold lower toxicity to mammalian cells)” value [2] is reported as greater than 48 fold.
